Laboratory results: PMC7057333 (ACS Omega, 2020)

Target: T1, LSD1 (Homo sapiens, UniProt O60341)
T1 construct: made in house; host or cells: Escherichia coli Rosetta 2 (pET15b)
Test: HRP-coupled fluorescence LSD1 demethylation activity and inhibition assay, substrate H3_1-21 K4(Me)
Format: biochemical
Conditions: relative to H3_1-11 K4M (4)

Question: With `CSCC[C@@H]1NC(=O)[C@H](NC(=O)[C@H](CCCNC(=N)N)NC(=O)[C@H](C)N)CCCCNC(=O)CC[C@@H](C(=O)N[C@@H](C)C(=O)N[C@@H](CCCNC(=N)N)C(=O)N[C@@H](CCCCN)C(=O)N[C@@H](CO)C(=O)N[C@H](C(N)=O)[C@@H](C)O)NC(=O)[C@H](CCC(N)=O)NC1=O` (relative stereo) [Peptide 31] as the compound, how does the “fold higher inhibition of LSD1 enzymatic activity than linear parent 4” value read?
Answer: > 40 fold
